In test [1] the target is T1, 突变型金黄色葡萄球菌肠毒素B mSEB(L45R,Y89A,Y94A) (Staphylococcus aureus (ATCC BAA-1556)).
The target of test [2] is T1, 突变型金黄色葡萄球菌肠毒素B mSEB(L45R,Y89A,Y94A). This is another data set of the same source.

B1: 全人源SEB单克隆抗体M0313 (antibody, V domains shown)
VH: EVQLVQSGGGLVQPGGSLRLSCAASGFTLSNYGMSWVRQSPGKGLEWVSGISGGSGSTCYADFVKGRFTISRDKSKNTLSLEMNSLRAEDRAVYYCAKDREYYNSGYYYFPYQYAMDVWGQGTTVTVSS
VL: QSVLTQPPSASGTPGQRVTISCSGGRPNIGGNSVYWYQQFPGTSPKLLIYTNDQRPSGVPDRFSGSKSGTSASLAISGLRSEDEADYYCAAWDDSLSAYVFGAGTKVTVL
One may read the EC50 as the midpoint of the concentration-response curve. Low values mean a more potent agent, high ones a less potent agent. One may read the koff as a measure of how fast the partners let go of each other. The kon is the rate constant with which the complex forms. Higher therefore signals fast association. In turn, B1 gave a concentration for a half-maximal effect (EC50) in test [1] of 4.9 ng/mL. In test [2], this molecule yielded a dissociation rate constant (koff) of 0.00273 s⁻¹ and a kon of 593000 M⁻¹ s⁻¹.

Source of the values: patent publication CN110498854A, “一种抗金黄色葡萄球菌肠毒素b的抗体及其应用” (UNIV ARMY MEDICAL, dated 2019).
